Test results: PMC13232947

Biological target: dimeric His-tagged Rhinolophus cornutus bat ACE2 (bACE2_(R.cor)) (Rhinolophus cornutus)
Assay: BLI

Question: BANAL-20-236-RBD-Fc was tested. Which Kd did it give?
Answer: 13.1 nM
